A mixed list of measured activities; the numbers were collected in NIAID ChemDB.

All rows: whole-cell or culture tests; agent: Herpes simplex virus 1; measure: EC50

ECn is the concentration giving n% inhibition of infection, replication or growth.

SMILES	strain	cells	read by	result
C[C@H]1[C@H](O)[C@@H](CO)O[C@H]1n1cc(Br)c(=O)[nH]c1=O	KOS	RPMI8226	cytopathic effect	0.21 µg/mL
Nc1nc2c(ncn2COC(CO)CO)c(=O)[nH]1	ICI	RK-13	plaque count	0.48 µM
O=c1[nH]c(=O)n([C@@H]2O[C@H](CO)[C@@H](O)[C@@H]2O)cc1/C=C/Br	KOS	ESM	cytopathic effect	0.007 µg/mL
Nc1nc2c(ncn2C/C=C\CO)c(=O)[nH]1	C42	VERO	plaque count	0.8 µM
C[C@H]1[C@H](O)[C@@H](CO)O[C@H]1n1cc(I)c(N)nc1=O	A4-3	RPMI8226	cytopathic effect	>100 µg/mL
O=c1[nH]c(=O)n([C@H]2C[C@H](O)[C@@H](CO)O2)cc1/C=C/Br	KOS	HeLa	cytopathic effect	0.02 µg/mL
O=C(O)P(=O)(O)O	E-377	MEF	plaque count	8.4 µg/mL
C[C@@H](c1ccccc1)N(CC(=O)Nc1ccc(-c2csc(N)n2)cc1)C(=O)c1ccncc1	615.9	BHK-21/C13	plaque count	0.13 µM
Cn1cc(C(=O)NCc2ccc(Cl)cc2)c(=O)c2cc(CN3CCOCC3)ccc21	L6191321 ACV resistant	HFF	plaque count	2.6 µM
Nc1nc2c(ncn2CCCC(CO)CO)c(=O)[nH]1	C42	Primary mouse cells	plaque count	0.1 µM
Nc1nc(=O)n([C@@H]2O[C@H](CO)[C@@H](O)[C@@H]2F)cc1I	KOS	HSF	cytopathic effect	0.02 µg/mL
Nc1nc2c(ncn2CC(CO)OCP(=O)(O)O)c(=O)[nH]1	KOS phosphonoformic acid-resistant	WI-38	plaque count	0.3 µM
Nc1nc2c(ncn2COCCO)c(=O)[nH]1	12959 DM21 acyclovir-resistant	HFF	cytopathic effect	>50 µg/mL
Nc1ncnc2c1ncn2[C@@H]1O[C@H](CO)[C@@H](O)[C@@H]1O	KOS	ESM	cytopathic effect	20 µg/mL
O=C(NCc1ccc(Cl)cc1)c1c[nH]c2c(F)cccc2c1=O	294		plaque count	29 µM
Nc1ncnc2c1ncn2[C@@H]1O[C@H](CO)[C@@H](O)[C@@H]1O	Ara-A-resistant	RK-13	plaque count	105 µM
C[C@H]1[C@H](O)[C@@H](CO)O[C@H]1n1cc(Br)c(N)nc1=O	A4-3	RPMI8226	cytopathic effect	>84.8 µg/mL
O=c1[nH]c(=O)n([C@H]2C[C@H](O)[C@@H](CO)O2)cc1I	KOS	ESM	cytopathic effect	0.1 µg/mL
O=C(NCc1ccc(Cl)cc1)c1cn2c3c(cc(CN4CCOCC4)cc3c1=O)OC(c1cccnc1)C2	SC16	HFF	plaque count	7.2 µM
C[C@H]1[C@H](O)[C@@H](CO)O[C@H]1n1cc(Cl)c(N)nc1=O	KOS	RPMI8226	cytopathic effect	>100 µg/mL

A second listing of 3 rows from above:

SMILES | strain | cells | read by | result
Nc1nc2c(ncn2CCCC(CO)CO)c(=O)[nH]1 | C42 | Primary mouse cells | plaque count | 0.1 µM
Nc1ncnc2c1ncn2[C@@H]1O[C@H](CO)[C@@H](O)[C@@H]1O | Ara-A-resistant | RK-13 | plaque count | 105 µM
C[C@H]1[C@H](O)[C@@H](CO)O[C@H]1n1cc(Br)c(N)nc1=O | A4-3 | RPMI8226 | cytopathic effect | >84.8 µg/mL

Blank or dashed fields: not listed here. Conditions beyond the fields shown may differ between rows.